Measured values from several laboratories, pooled; numbers as filed in NIAID ChemDB.

Shared fields: tests in culture; organism: HIV-1; method: RT activity; measure: EC50

ECn is the concentration giving n% inhibition of infection, replication or growth. An empty or dashed field is not shown. Neighbouring rows are from separate reports.

compound,cell line,strain,changes,conditions,value
Cc1c(-c2cccc(SCCN(C)C)c2)ncnc1-c1cccc(SCCN(C)C)c1,PBMC,LAV,,,6 µM
Cc1cccc(C(=O)OCc2nc3ccccc3nc2C)c1O,PBMC,BaL,,,>100 µM
Nc1nc2c(ncn2[C@@H]2O[C@H](COP(=O)(O)O)[C@@H](O)[C@H]2O)c(=O)o1,H9,IIIB,,,>30 µg/mL
COc1cc(OC)c(C(=O)OCc2nc3ccccc3nc2C)cc1OC,PBMC,89BZ167,,,>100 µM
CCN(CC)C(=O)OC[C@@H]1CN(C(=O)c2ccccc2)CCN1C(=O)C(=O)c1c[nH]c2nccc(OC)c12,PBMC,LAI,,,>125 µM
CC(C)CC(=O)N[C@H](C(=O)N[C@H](C(=O)N[C@@H](CC(C)C)[C@@H](O)CC(=O)N[C@@H](C)C(=O)N[C@@H](CC(C)C)[C@@H](O)CC(=O)O)C(C)C)C(C)C,H9,IIIB,,,<500 µM
CN(C)CCSc1cccc(-c2cc(-c3cccc(SCCN(C)C)c3)nc(SCCN(C)C)n2)c1,PBMC,LAV-1,,,6.2 µM
CC(C)C1=CC(=O)[C@@]2(C)CC[C@@]3(C)C=C[C@@](C)(O)CC[C@@H]3[C@@H]12,PBMC,LAV,,,>100 µM
OCCNc1nc(-c2cccs2)cc(-c2cccs2)n1,PBMC,LAV,,,55.2 µM
CC(C)C1=C2C3CCC4[C@@]5(C)CC[C@H](OC(=O)CC(C)(C)C(=O)O)C(C)(C)C5CC[C@@]4(C)[C@]3(C)CC[C@@]2(NC(=O)NC2CCCCC2)CC1=O,MT-2,IIIB,,30% human serum,<0.199 µM
Cc1c(OC(=O)CCCCOc2ccc(C[C@H](N)C(=O)O)cc2)cccc1C(=O)N[C@@H](CSc1ccccc1)[C@H](O)CN1C[C@H]2CCCC[C@H]2C[C@H]1C(=O)NC(C)(C)C,CEM,LAI,,,0.021 µM
COc1cccc(OC)c1C(=O)OCc1nc2ccccc2nc1C,PBMC,BaL,,,24.3 µM
Cc1ccc(-c2cccc(-c3ccc(CNCCN(C)C)cc3)n2)cc1,PBMC,LAV,,,4 µM
Cc1cc(C(=O)N[C@@]23CC[C@]4(C)[C@H](CC[C@@H]5[C@@]6(C)CC[C@H](OC(=O)CC(C)(C)C(=O)O)C(C)(C)[C@@H]6CC[C@]54C)C2=C(C(C)C)C(=O)C3)cc(C)n1,MT-2,IIIB,,30% human serum,<0.199 µM
COc1cc2oc(-c3ccc(O)cc3O)c(CC=C(C)C)c(=O)c2c(O)c1CC=C(C)C,PBMC,LAV,,,2.9 µM
CN(C)CCNc1nc(-c2cccs2)cc(-c2cc3ccccc3s2)n1,PBMC,LAV-1,,,5.8 µM
Cc1ccc(NC(=O)CN2CCN(Cc3nc(-c4ccc(F)cc4)no3)CC2)cc1,PBMC,92UG031,,,11.7 µM
CN(C)CCSc1ccc(-c2ccncn2)cc1,PBMC,LAV,,,25.5 µM
CCN(CC)C(=O)OC[C@H]1CN(C(=O)c2ccccc2)CCN1C(=O)C(=O)c1c[nH]c2nccc(OC)c12,PBMC,LAI,,,>125 µM
CN(C)CCSc1nc(-c2cccs2)cc(-c2cccn2C)n1,PBMC,LAV,,,15.9 µM
NCCNc1nc(-c2ccco2)cc(-c2cc3ccccc3s2)n1,PBMC,LAV-1,,,1.9 µM
COC(=O)C[C@H](O)[C@@H](NC(=O)[C@H](C)NC(=O)C[C@H](O)[C@@H](NC(=O)Oc1ccccc1)C(F)(F)F)C(F)(F)F,CEM + CEM-SS,LAI,,,>100 µg/mL
CN1CCN(CCSc2nc(-c3cc4ccccc4s3)c3ccccc3n2)CC1,PBMC,LAV-1,,,6.1 µM
CC(C)C1=C2[C@H]3CC[C@@H]4[C@@]5(C)CC[C@H](OC(=O)[C@H]6CCC[C@@H](C(=O)O)C6)C(C)(C)[C@@H]5CC[C@@]4(C)[C@]3(C)CC[C@@]2(NC(=O)OC(C)(C)C)CC1=O,MT-2,IIIB,,30% human serum,<0.199 µM
CCOCCCNC(=O)[C@@H](NC(=O)[C@H](Cc1ccc(OC)c(OC)c1OC)C[C@H](O)[C@H](Cc1ccccc1)NC(=O)OC(C)(C)C)C(C)C,MT-2,MN,,,<0.03 µM
CC(C)C1=C2C3CCC4[C@@]5(C)CC[C@H](OC(=O)CC(C)(C)C(=O)O)C(C)(C)C5CC[C@@]4(C)[C@]3(C)CC[C@@]2(NC(=O)C(=O)N(C)C)CC1=O,MT-2,IIIB,,30% human serum,<0.199 µM
CC(C)(C)OC(=O)N[C@H](Cc1ccc(O)cc1)/C(O)=C(\C#N)c1c(F)c(F)c(F)c(F)c1F,MT-4,IIIB,,,43 µM
Cc1nc2ccccc2nc1COC(=O)c1ccc(O)cc1O,PBMC,BaL,,,>100 µM
C[C@@H]1CCO[C@H]2Cn3cc(C(=O)NCc4ccc(F)cc4F)c(=O)c(O)c3C(=O)N12,CBMC,NL4-3,M50I/R263K,,0.0023 µM
CC(C)[C@H](NC(=O)[C@H](Cc1ccc2c(c1)OCO2)C[C@H](O)[C@H](Cc1ccccc1)NC(=O)OC(C)(C)C)C(=O)N[C@@H](Cc1ccccc1)C(=O)N1CCOCC1,MT-2,MN,,,<0.01 µM
CC(C)C1=C2C3CCC4[C@@]5(C)CC[C@H](OC(=O)CC(C)(C)C(=O)O)C(C)(C)C5CC[C@@]4(C)[C@]3(C)CC[C@@]2(NC(=O)C2CCOCC2)CC1=O,MT-2,IIIB,,30% human serum,<0.199 µM
COc1c2ccoc2c(OC)c2oc(=O)ccc12,PBMC,LAV,,,>100 µM
COCCNC(=O)[C@@H](NC(=O)[C@H](Cc1ccc(OC)c(OC)c1)C[C@H](O)[C@H](Cc1ccccc1)NC(=O)OC(C)(C)C)C(C)C,MT-2,MN,,,<0.1 µM
CC1=CC[C@]2(C)CC(=O)[C@]3(C)C(=O)C=C(C(C)C)[C@@H]3[C@H]2CC1,PBMC,LAV,,,42.1 µM
COC(=O)[C@H](C)NC(=O)C[C@H](O)[C@@H](NC(=O)Oc1ccccc1)C(F)(F)F,CEM + CEM-SS,LAI,,,>100 µg/mL
CC(C)C1=C2C3CCC4[C@@]5(C)CC[C@H](OC(=O)CC(C)(C)C(=O)O)C(C)(C)C5CC[C@@]4(C)[C@]3(C)CC[C@@]2(NC(=O)N[C@H](C)C(F)(F)F)CC1=O,MT-2,IIIB,,30% human serum,<0.199 µM
O=P(O)(O)OP(=O)(O)OP(=O)(O)O,H9,IIIB,,,>100 µg/mL
COC(=O)CC1(O)C(O[Si](C)(C)C(C)(C)C)[C@H](n2ccc(=O)[nH]c2=O)O[C@@H]1CO[Si](C)(C)C(C)(C)C,PBMC,LAI,,,>10 µM
COC(=O)[C@H](Cc1ccccc1)NP(=O)(OCCC#N)OC[C@H]1O[C@@H](n2cc(C)c(=O)[nH]c2=O)C[C@@H]1N=[N+]=[N-],PBMC,LAV,,,>1 µM
COc1cc(C[C@H](C[C@H](O)[C@H](Cc2ccccc2)NC(=O)OC(C)(C)C)C(=O)N[C@H](C(=O)N[C@@H](Cc2ccccc2)C(=O)N2CCOCC2)C(C)C)cc(OC)c1OC,MT-2,MN,,,<1 µM
Nc1ncnc2c1ncn2C1OC(CO)C=C1F,PBMC,LAV,,,1.5 µM
COC(=O)c1ccc(C(=O)OCc2nc3ccccc3nc2C)cc1,PBMC,BaL,,,>100 µM
CC(C)[C@H](NC(=O)[C@H](Cc1ccc2c(c1)OCO2)C[C@H](O)[C@H](Cc1ccccc1)NC(=O)OC(C)(C)C)C(=O)NCCN(C)C,MT-2,MN,,,<0.1 µM
CCCCCCCCCCCCCCCC(=O)OCC(COC(=O)CCCCCCCCCCCCCCC)OC(=O)CCC(=O)O[C@@H]1Cc2ccccc2[C@@H]1NC(=O)[C@H](Cc1ccccc1)C[C@H](O)CN1CCN(Cc2cccnc2)C[C@H]1C(=O)NC(C)(C)C,CEM,LAI,,,2.6 µM
COC(=O)[C@H](Cc1c[nH]c2ccccc12)NP(=O)(OC)OC[C@H]1O[C@@H](n2cc(C)c(=O)[nH]c2=O)C[C@@H]1N=[N+]=[N-],PBMC,LAV,,,0.3 µM
CN(C)CCSc1cccc(-c2cc(-c3cccc(SCCN(C)C)c3)ncn2)c1,PBMC,LAV-1,,,1.6 µM
CC(C)(C)NC(=O)[C@@H]1CN(Cc2cccnc2)CCN1C[C@H](C[C@@H](Cc1ccccc1)C(=O)N[C@H]1c2ccccc2C[C@H]1OC(=O)CCCCOc1ccc(C[C@H](N)C(=O)O)cc1)OC(=O)CCCCOc1ccc(C[C@H](N)C(=O)O)cc1,CEM,LAI,,,0.81 µM
Nc1nc2c(ncn2[C@@H]2O[C@H](CO)[C@@H](O)[C@H]2O)c(=O)o1,H9,IIIB,,,>30 µg/mL
CCCCCCCC/C=C\CCCCCCCC(=O)OCC(COC(=O)CCCCCCC/C=C\CCCCCCCC)OC(=O)CCC(=O)O[C@@H](C[C@@H](Cc1ccccc1)C(=O)N[C@H]1c2ccccc2C[C@H]1OC(=O)CCC(=O)OC(COC(=O)CCCCCCC/C=C\CCCCCCCC)COC(=O)CCCCCCC/C=C\CCCCCCCC)CN1CCN(Cc2cccnc2)C[C@H]1C(=O)NC(C)(C)C,CEM,LAI,,,>10 µM
C/C(=N\NC(=O)CN1c2c(-c3ccccc3)n[nH]c2-c2ccccc2S1(=O)=O)c1sc(N)nc1C,PBMC,,,,3.8 µM
Cc1cnc(SCCN(C)C)nc1-c1ccc(-c2nc(SCCN(C)C)ncc2C)s1,PBMC,LAV,,,2.5 µM
COC(=O)C[C@H](O)[C@@H](NC(=O)[C@H](C)NC(=O)C[C@H](O)[C@@H](N)C(F)(F)F)C(F)(F)F,CEM + CEM-SS,LAI,,,>100 µg/mL
CN(C)CCNc1nc(-c2cc3ccccc3s2)c2ccccc2n1,PBMC,LAV,,,1.7 µM
Cc1c(O)cccc1C(=O)N[C@@H](CSc1ccccc1)[C@@H](CN1C[C@H]2CCCC[C@H]2C[C@H]1C(=O)NC(C)(C)C)OC(=O)NCCCCOc1ccc(C[C@H](N)C(=O)O)cc1,CEM,LAI,,,>10 µM
COc1cc(C(=O)OCc2nc3ccccc3nc2C)cc(OC)c1OC,PBMC,BaL,,,>100 µM
Cc1c(OC(=O)CCCCOc2ccc(C[C@H](NC(=O)OC(C)(C)C)C(=O)O)cc2)cccc1C(=O)N[C@@H](CSc1ccccc1)[C@@H](CN1C[C@H]2CCCC[C@H]2C[C@H]1C(=O)NC(C)(C)C)OC(=O)CCCCOc1ccc(C[C@H](NC(=O)OC(C)(C)C)C(=O)O)cc1,CEM,LAI,,,2.2 µM
COc1cc2oc3c(c(=O)c2c(O)c1/C=C/C(C)C)C(C=C(C)C)Oc1cc(O)ccc1-3,PBMC,LAV,,,10 µM
Cc1cn([C@H]2C[C@H](N=[N+]=[N-])[C@@H](CO)O2)c(=O)[nH]c1=O,PBMC,,,,0.00037 µM
Nc1nc2c(ncn2[C@H]2C[C@H](O)[C@@H](CO)O2)c(=O)o1,H9,IIIB,,,>30 µg/mL
Cc1nc2ccccc2nc1COC(=O)c1ccc(O)cc1,PBMC,BaL,,,>100 µM
COC(=O)[C@H](Cc1c[nH]c2ccccc12)NP(=O)(O)OC[C@H]1O[C@@H](n2cc(C)c(=O)[nH]c2=O)C[C@@H]1N=[N+]=[N-],PBMC,LAV,,,0.01 µM
O=C(O)C[C@H](O)[C@@H](NC(=O)Oc1ccccc1)C(F)(F)F,MT-4,IIIB,,,>100 µg/mL
CC(C)NC(=O)N[C@@]12CC[C@]3(C)[C@H](CC[C@@H]4[C@@]5(C)CC[C@H](OC(=O)CC(C)(C)C(=O)O)C(C)(C)[C@@H]5CC[C@]43C)C1=C(C(C)C)C(=O)C2,MT-2,IIIB,,30% human serum,<0.199 µM
COCCNC(=O)[C@@H](NC(=O)[C@H](Cc1ccc2c(c1)OCO2)C[C@H](O)[C@H](Cc1ccccc1)NC(=O)OC(C)(C)C)C(C)C,MT-2,MN,,,<0.03 µM
CC(C)C1=C2[C@H]3CC[C@@H]4[C@@]5(C)CC[C@H](OC(=O)CC(C)(C)C(=O)O)C(C)(C)[C@@H]5CC[C@@]4(C)[C@]3(C)CC[C@@]2(NC(=O)c2c[nH]ccc2=O)CC1=O,MT-2,IIIB,,30% human serum,<0.199 µM
CC(C)=CCc1c(O)cc2oc(-c3ccc(O)cc3O)c(CC=C(C)C)c(=O)c2c1O,PBMC,LAV,,,4.9 µM
COc1cc(-c2ccc(N=Nc3ccc4c(S(=O)(=O)O)cc(S(=O)(=O)O)c(N)c4c3O)c(OC)c2)ccc1N=Nc1ccc2c(S(=O)(=O)O)cc(S(=O)(=O)O)c(N)c2c1O,CEM + CEM-SS,C,,,0.4 µM
COc1ccc(C[C@H](C[C@H](O)[C@H](Cc2ccccc2)NC(=O)OC(C)(C)C)C(=O)N[C@H](C(=O)N[C@@H](Cc2ccccc2)C(=O)N2CCOCC2)C(C)C)c(OC)c1OC,MT-2,MN,,,<1 µM
CC(C)C(=O)Cc1c(OCC2OC2(C)C)ccc2ccc(=O)oc12,PBMC,LAV,,,>100 µM

Repeating the first 4 entries:

compound | cell line | strain | changes | conditions | value
Cc1c(-c2cccc(SCCN(C)C)c2)ncnc1-c1cccc(SCCN(C)C)c1 | PBMC | LAV |  |  | 6 µM
Cc1cccc(C(=O)OCc2nc3ccccc3nc2C)c1O | PBMC | BaL |  |  | >100 µM
Nc1nc2c(ncn2[C@@H]2O[C@H](COP(=O)(O)O)[C@@H](O)[C@H]2O)c(=O)o1 | H9 | IIIB |  |  | >30 µg/mL
COc1cc(OC)c(C(=O)OCc2nc3ccccc3nc2C)cc1OC | PBMC | 89BZ167 |  |  | >100 µM